IC50 data for one compound are collected here from patent US20140288040A1, “SUBSTITUTED BENZYLAMINE COMPOUNDS, THEIR USE IN MEDICINE, AND IN PARTICULAR THE TREATMENT OF HEPATITIS C VIRUS (HCV) INFECTION” (ASTEX THERAPEUTICS LIMITED, priority 2011, published 2014).

Sequences of proteins named here, by UniProt entry; tags and fusion partners are left off. Residues count along the entry.
UniProt P26663, 1027-1657 limits assumed: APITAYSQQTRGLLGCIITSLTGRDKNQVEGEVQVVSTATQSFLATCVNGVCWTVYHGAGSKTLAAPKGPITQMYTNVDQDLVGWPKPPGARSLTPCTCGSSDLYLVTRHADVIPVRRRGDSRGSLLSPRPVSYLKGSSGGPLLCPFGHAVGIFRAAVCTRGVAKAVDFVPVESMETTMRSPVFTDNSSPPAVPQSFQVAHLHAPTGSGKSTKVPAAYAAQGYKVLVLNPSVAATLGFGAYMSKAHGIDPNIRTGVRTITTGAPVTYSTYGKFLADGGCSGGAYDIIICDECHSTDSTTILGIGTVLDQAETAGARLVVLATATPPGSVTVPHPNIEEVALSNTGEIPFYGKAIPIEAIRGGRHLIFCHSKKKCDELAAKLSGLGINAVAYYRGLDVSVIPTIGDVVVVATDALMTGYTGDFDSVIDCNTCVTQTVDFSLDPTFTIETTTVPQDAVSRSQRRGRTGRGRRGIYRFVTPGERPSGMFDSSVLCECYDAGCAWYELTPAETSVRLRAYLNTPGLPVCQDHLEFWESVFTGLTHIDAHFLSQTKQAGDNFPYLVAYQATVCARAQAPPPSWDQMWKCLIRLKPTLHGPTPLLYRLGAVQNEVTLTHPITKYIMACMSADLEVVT
UniProt P26663, 1658-1711 partner limits assumed: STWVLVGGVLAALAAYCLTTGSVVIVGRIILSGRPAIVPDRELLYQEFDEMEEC

pIC50: −log10 of the molar value.

The test concerns the target HCV NS3 protease (full length NS34a) (Hepatitis C virus genotype 1b, UniProt P26663). The experiment in a line: HCV NS3 protease assay (FRET, full length NS34a). Format: biochemical. Conditions: read-out: Activity IC50; protease activity of full length NS34a, FRET peptide substrate; tested form: HCl.

`C#Cc1ccc(Oc2c(Cl)ccc([C@H](N)CC)c2F)cc1`: the pIC50 (usually −log10 of the IC50, conventionally taken in molar units) was 6.21.
